{"source": "patent US20080274134A1", "key": {"[1]": {"biological_target": "HIV-1JR-FL envelope glycoprotein (full-length gp160) on virus particles (HIV-1 JR-FL)", "assay": "cell-based or functional assay"}, "[2]": {"biological_target": "HIV-1MN envelope glycoprotein (full length gp160MN) on pseudovirus (HIV-1 MN) (UniProt P05877)", "assay": "cell-based or functional assay"}}}
{"substance": "CD4-immunoglobulin G2 (CD4-IgG2), tetrameric CD4-based molecule (from UniProt P01730 26-204; P01730 26-203) (Fc fusion)", "values": [{"measurement": "50% neutralization, HIV-1JR-FL Env-pseudotyped virus on U87.CD4 co-receptor cells (mean titer, n=29)", "setting": "[1]", "result": 0.11, "unit": "µg/mL"}, {"measurement": "50% neutralization, PBMC-grown HIV-1JR-FL in PBMC assay (n=14)", "setting": "[1]", "result": 0.32, "unit": "µg/mL"}, {"measurement": "90% neutralization, HIV-1JR-FL pseudovirus", "setting": "[1]", "result": 0.72, "unit": "µg/mL"}, {"measurement": "90% neutralization, replication-competent HIV-1JR-FL", "setting": "[1]", "result": 1.32, "unit": "µg/mL"}, {"measurement": "50% titer, HIV-1MN pseudoviruses (n=22)", "setting": "[2]", "result": 0.01, "unit": "µg/mL"}, {"measurement": "90% titer, HIV-1MN pseudoviruses (n=22)", "setting": "[2]", "result": 0.05, "unit": "µg/mL"}]}
